Tests used:
Assay in all cases: purified protein
Conditions in all cases: pH 8.0; 37.0 °C
[1] = test system: Nc1nc2c(ncn2[C@@H]2O[C@H](COP(=O)(O)OP(=O)(O)O)[C@@H](O)[C@H]2O)c(=O)[nH]1
[2] = test system: Nc1nc2c(ncn2[C@@H]2O[C@H](COP(=O)(O)OP(=O)(O)OP(=O)(O)O)[C@@H](O)[C@H]2O)c(=O)[nH]1
[3] = test system: Nc1ncnc2c1ncn2[C@@H]1O[C@H](COP(=O)(O)OP(=O)(O)O)[C@@H](O)[C@H]1O
[4] = test system: Nc1ncnc2c1ncn2[C@@H]1O[C@H](COP(=O)(O)OP(=O)(O)OP(=O)(O)O)[C@@H](O)[C@H]1O

Substance: FtPPK2 (Francisella tularensis subsp. tularensis SCHU S4)
- Km [1]: 727 ± 138 µM
- kcat/Km [1]: 5080 M⁻¹ s⁻¹
- Km [2]: 692 ± 235 µM
- kcat/Km [2]: 4000 M⁻¹ s⁻¹
- Km [3]: 546 ± 79.2 µM
- kcat/Km [3]: 5790 M⁻¹ s⁻¹
- Km [4]: 372 ± 90.5 µM
- kcat/Km [4]: 3920 M⁻¹ s⁻¹
